A mixed list of measured activities; the numbers were collected in NIAID ChemDB.

All rows: growth or infection tests; agent: Cryptococcus neoformans; read-out: MIC50

MIC50, MIC90 and the like: level of inhibition, or share of isolates inhibited. Blank or dashed fields: not listed here. Lines come from different laboratories, so protocols vary.

| structure | strain or isolate | read by | value |
|---|---|---|---|
| Cn1nc(Cc2ccc(Cl)cc2)c2ccccc2c1=O | Clinical isolate (IM 031633) | broth dilution | 7.8 µg/mL |
| O=C1OCC(c2cccs2)=C1c1ccc(OCC(O)(Cn2cncn2)c2ccc(F)cc2F)cc1 | ATCC 34664 | broth dilution | 8 µg/mL |
| C[C@H]1[C@H](O)[C@@H](C)/C=C/C=C/C=C/C=C/C=C/C=C/C=C/[C@H](O[C@@H]2O[C@H](C)[C@@H](O)[C@H](N)[C@@H]2O)C[C@@H]2O[C@](O)(C[C@@H](O)C[C@@H](O)CC[C@H](O)[C@@H](O)C[C@@H](O)CC(=O)O[C@H]1C)C[C@H](O)[C@H]2C(=O)O | 5 isolates | - | 0.25 µg/mL |
| COc1cc(O)c2c(c1)C(=O)c1c(cc3c(c1O)-c1c(cc(C)c(C(=O)NC(CO)C(=O)O)c1O)[C@H](OC1OC(C)C(O)C(OC4OCC(O)C(O)C4O)C1O)C3O)C2=O | 32 isolates | - | 2 µg/mL |
| COc1cc(C2=C(c3ccc(F)cc3F)COC2=O)ccc1OCC(O)(Cn1cncn1)c1ccc(F)cc1F | ATCC 34664 | broth dilution | 8 µg/mL |
| C[C@H]1[C@H](O)[C@@H](C)/C=C/C=C/C=C/C=C/C=C/C=C/C=C/[C@H](O[C@@H]2O[C@H](C)[C@@H](O)[C@H](N)[C@@H]2O)C[C@@H]2O[C@](O)(C[C@@H](O)C[C@@H](O)CC[C@H](O)[C@@H](O)C[C@@H](O)CC(=O)O[C@H]1C)C[C@H](O)[C@H]2C(=O)O | 12 strains | - | 0.06 µg/mL |
| CC(C)(N)CSCc1ccc(-c2csc(-c3ccc(Cl)cc3)n2)cc1 | - | - | 4 µg/mL |
| CCC(C)CC(C)CCCCCCCCC(=O)N[C@H]1C[C@@H](O)[C@H](NCCN)NC(=O)[C@@H]2[C@@H](O)CCN2C(=O)[C@H]([C@H](O)CCN)NC(=O)[C@H]([C@H](O)[C@@H](O)c2ccc(O)cc2)NC(=O)[C@@H]2C[C@@H](O)CN2C(=O)[C@H]([C@@H](C)O)NC1=O | 15 strains | - | >8 µg/mL |
| OC(Cn1cncn1)(Cn1cncn1)c1ccc(F)cc1F | ATCC 36556 | - | 3.75 µg/mL |
| C[C@H]1[C@H](O)[C@@H](C)/C=C/C=C/C=C/C=C/C=C/C=C/C=C/[C@H](O[C@@H]2O[C@H](C)[C@@H](O)[C@H](N)[C@@H]2O)C[C@@H]2O[C@](O)(C[C@@H](O)C[C@@H](O)CC[C@H](O)[C@@H](O)C[C@@H](O)CC(=O)O[C@H]1C)C[C@H](O)[C@H]2C(=O)O | 32 isolates | - | 0.12 µg/mL |
| CCC(C)n1ncn(-c2ccc(N3CCN(c4ccc(OC[C@H]5CO[C@](Cn6cncn6)(c6ccc(Cl)cc6Cl)O5)cc4)CC3)cc2)c1=O | 15 strains | - | 0.03 µg/mL |
| COC(=O)[C@H]1[C@@H]2C[C@@H](O[C@@H]3O[C@H](C)[C@@H](O)[C@H](N)[C@@H]3O)/C=C/C=C/C=C/C=C/C=C/C=C/C=C/[C@H](C)[C@@H](O)[C@H](C)[C@H](C)OC(=O)C[C@H](O)C[C@H](O)[C@@H](O)CC[C@H](O)C[C@H](O)C[C@](O)(C[C@@H]1O)O2 | 42 isolates (HIV+) | - | 0.03 µg/mL |
| C=C(C)C(O)Cc1c(O)ccc(C(=O)/C=C/c2ccc(O)cc2)c1O | - | - | 7 µg/mL |
| CCCCCCCCCCCCCCCC(=O)NC1CC(O)C(O)NC(=O)C2C(O)C(C)CN2C(=O)C(C(O)CC(N)=O)NC(=O)C(C(O)Cc2ccc(O)c(OS(=O)(=O)O)c2)NC(=O)C2CC(O)CN2C(=O)C(C(C)O)NC1=O | YC203 | - | >2.5 µg/mL |
| CC1(O)OC(=O)C(c2ccc(OCC(O)(Cn3cncn3)c3ccc(F)cc3F)cc2)=C1c1ccc(F)cc1F | ATCC 34664 | broth dilution | 16 µg/mL |
| CCC(C)CC(C)CCCCCCCCC(=O)N[C@H]1C[C@@H](O)[C@H](NCCN)NC(=O)[C@@H]2[C@@H](O)CCN2C(=O)[C@H]([C@H](O)CCN)NC(=O)[C@H]([C@H](O)[C@@H](O)c2ccc(O)cc2)NC(=O)[C@@H]2C[C@@H](O)CN2C(=O)[C@H]([C@@H](C)O)NC1=O | 19 strains | - | 32 µg/mL |
| CN(C)CCCNCc1ccc(-c2csc(-c3ccc(Cl)cc3)n2)cc1 | - | - | 1 µg/mL |
| Cc1nn(-c2ccccc2)c2nc3nc4c(c(N)c3c(-c3ccc(Cl)cc3)c12)CCC4 | ATCC 32264 | broth dilution / absorbance | 250 µg/mL |
| CCC(C)n1ncn(-c2ccc(N3CCN(c4ccc(OC[C@@H]5CO[C@@](Cn6cncn6)(c6ccc(F)cc6F)O5)cc4)CC3)cc2)c1=O | 9 strains | - | ≤0.015 µg/mL |
| CC(=O)N1CCN(c2ccc(OC[C@H]3CO[C@](Cn4ccnc4)(c4ccc(Cl)cc4Cl)O3)cc2)CC1 | 12 strains | - | 1 µg/mL |
| Cc1ccc(-c2c3c(N)c4c(nc3nc3c2c(C)nn3-c2ccccc2)CCCCC4)cc1 | ATCC 32264 | broth dilution / absorbance | 125 µg/mL |
| CC(C)(N)CNCc1ccc(-c2csc(-c3ccc(Cl)cc3)n2)cc1 | - | - | 8 µg/mL |
| CCCCCCCCCCCCCCCC(=O)NC1CCC(O)NC(=O)C2C(O)C(C)CN2C(=O)C(C(O)CC(N)=O)NC(=O)C(C(O)Cc2ccc(O)c(OS(=O)(=O)O)c2)NC(=O)C2CC(O)CN2C(=O)C(C(C)O)NC1=O | YC203 | - | >2.5 µg/mL |
| CCC(C)CC(C)CCCCCCCCC(=O)N[C@H]1C[C@@H](O)[C@H](NCCN)NC(=O)[C@@H]2[C@@H](O)CCN2C(=O)[C@H]([C@H](O)CCN)NC(=O)[C@H]([C@H](O)[C@@H](O)c2ccc(O)cc2)NC(=O)[C@@H]2C[C@@H](O)CN2C(=O)[C@H]([C@@H](C)O)NC1=O | 10 strains | - | >16 µg/mL |
| O=C1O/C(=C\c2ccc(OCC(O)(Cn3cncn3)c3ccc(F)cc3F)cc2)C(c2ccc(F)cc2F)=C1c1ccc(Cl)cc1 | ATCC 34664 | broth dilution | 4 µg/mL |
| CC[C@@H]([C@H](C)O)n1ncn(-c2ccc(N3CCN(c4ccc(OC[C@@H]5CO[C@@](Cn6cncn6)(c6ccc(F)cc6F)C5)cc4)CC3)cc2)c1=O | 373 isolates | - | 0.12 µg/mL |
| COc1ccc(-c2c3c(N)c4c(nc3nc3c2c(C)nn3-c2ccccc2)CCC4)cc1 | ATCC 32264 | broth dilution / absorbance | 31.2 µg/mL |

Repeating the first 3 entries:

structure	strain or isolate	read by	value
Cn1nc(Cc2ccc(Cl)cc2)c2ccccc2c1=O	Clinical isolate (IM 031633)	broth dilution	7.8 µg/mL
O=C1OCC(c2cccs2)=C1c1ccc(OCC(O)(Cn2cncn2)c2ccc(F)cc2F)cc1	ATCC 34664	broth dilution	8 µg/mL
C[C@H]1[C@H](O)[C@@H](C)/C=C/C=C/C=C/C=C/C=C/C=C/C=C/[C@H](O[C@@H]2O[C@H](C)[C@@H](O)[C@H](N)[C@@H]2O)C[C@@H]2O[C@](O)(C[C@@H](O)C[C@@H](O)CC[C@H](O)[C@@H](O)C[C@@H](O)CC(=O)O[C@H]1C)C[C@H](O)[C@H]2C(=O)O	5 isolates	-	0.25 µg/mL